Pooled drug test results. Numbers come from NIAID ChemDB, via PubChem.

All rows: host cell toxicity; cells: MOLT-4; read-out: CC50

CCn is the concentration with n% toxicity to the cells. Two numbers with a dash give a range or band. Conditions beyond the fields shown may differ between rows.

structure	value
CCN(C)c1nc(N)nc2c1ncn2[C@H]1C[C@H](O)[C@@H](CO)S1	>100 µM
Cn1c2ccccc2c(=O)c2c(O)cccc21	14.8 µg/mL
OC[C@H]1O[C@@H](n2c(Br)nc3cc(Cl)c(Cl)cc32)[C@H](O)[C@@H]1O	35–72 µM
CC(C)Nc1nc2cc(Cl)c(Cl)cc2n1[C@H]1OC[C@H](O)[C@@H]1O	15 µM
Cn1cc(C(=O)O)c(=O)c2cc(F)c(N3CC=C(c4ccccc4)CC3)c(C(F)(F)F)c21	1.9 µM
O=C(O)c1cn(-c2ccc(Cn3cncn3)cc2)c2c(OC(F)F)c(N3CC=C(c4ccccc4)CC3)c(F)cc2c1=O	0.22 µM
CC(C)Nc1nc2c(Br)c(Cl)c(Cl)cc2n1[C@@H]1OC[C@@H](O)[C@H]1O	13 µM
Cn1cc(C(=O)O)c(=O)c2cc(F)c(N3CC=C(c4ccccc4)CC3)c(C(F)(F)F)c21	1.6 µM
Nc1nc(N2CCCCC2)c2ncn([C@H]3C[C@H](O)[C@@H](CO)S3)c2n1	>100 µM
O=S(=O)(c1cccc2cnccc12)N1CCNCC1	8.4 µg/mL
COC(=O)[C@@H](NC(=O)[C@@H](NC(=O)CNC[C@H](O)[C@H](Cc1ccccc1)NC(=O)[C@H](C)NC(=O)[C@H](C)N)C(C)C)C(C)C	>100 µM
CCCCC(=O)OC1CC(OC(C)C(C)C(O)C(C)C(O)C(C)C2OC(=O)/C=C/CC(O)CC(O)CC(O)CCC(C)C(O)C[C@@]3(O)O[C@H](CC(O)CC(OC(=O)CC(=O)O)CCCC(O)C4OC4C2C)C[C@H](O)[C@H]3O)OC(C)C1O	>100 µg/mL
CC(C)Nc1nc2cc(Cl)c(Cl)cc2n1[C@H]1O[C@@H](CO)[C@H](O)[C@@H]1O	35–72 µM
COC(=O)[C@@H](NC(=O)[C@@H](NC(=O)[C@@H](C)NC[C@H](O)[C@H](Cc1ccccc1)NC(=O)[C@H](C)NC(=O)[C@H](C)NC(=O)OCc1ccccc1)C(C)C)C(C)C	>100 µM

Repeating the final 2 entries:

| structure | value |
|---|---|
| CC(C)Nc1nc2cc(Cl)c(Cl)cc2n1[C@H]1O[C@@H](CO)[C@H](O)[C@@H]1O | 35–72 µM |
| COC(=O)[C@@H](NC(=O)[C@@H](NC(=O)[C@@H](C)NC[C@H](O)[C@H](Cc1ccccc1)NC(=O)[C@H](C)NC(=O)[C@H](C)NC(=O)OCc1ccccc1)C(C)C)C(C)C | >100 µM |